Construct, isoform or probe ends are uncertain for at least one entry. At least one verdict rests on a figure or table, not on a statement of the authors.

The test system of the data set is MBP-SphR. Put plainly: EMSA. Conditions: 10 mM Tris-HCl pH 7.5, 50 mM KCl, 1 mM DTT, 1 mM EDTA, 3 mM MgCl2, 50 ug/ml BSA, 4% glycerol, 0.05% NP-40, 50 ng/ul poly(dI-dC), 30 C, 30 min, recombinant protein, residues 1-356, protein details: N-terminal MBP (pMAL-c5X), label: biotin 3' end, probe letters rebuilt from the primers and the genome. In general terms: A gel shift assay detects complexes by their altered migration in electrophoresis.

Regarding “GGTTGCCACTGTAGTGCCAGGGTGGTGGAGTCGAGGGGGGCGTAGCGGACAGGAAGGGGGTGAGCGCCGGCCATCCTGCATGGACGGCAAGGCAGGCGGGTAAAAAAAGGCCGCCTGCGT (double strand) [cerN promoter -200 to -81 probe]”, the binding result is recorded as “binds” (C14-sphingosine) and “binds” (C16-sphingosine).

Values taken from PMC5150637.
